Compound potency records, mixed from different reports. Data source: NIAID ChemDB in PubChem.

Lines come from different laboratories, so protocols vary. ICn: concentration for n% inhibition. An empty or dashed field is not shown. MIC50, MIC90 and the like: level of inhibition, or share of isolates inhibited. Inhibition is in % at the dose shown (toxicity tests: loss of growth or viability). MIC bound: limit read from a one-dose screen.

smiles | species | test | strain or isolate | read by | protein | cells | endpoint | tested at | value
O=C(O)c1ccc(C(=O)c2ccccc2C(=O)O)cc1 | Mycobacterium tuberculosis | culture | H37Rv |  |  |  | MIC |  | 50 µg/mL
C#CCN(Cc1ccc2nc(N)[nH]c(=O)c2c1)c1ccc(C(=O)NC(CCC(=O)O)C(=O)O)cc1 | Mycobacterium tuberculosis | culture | H37Rv | BACTEC |  |  | MIC bound |  | >12.5 µg/mL
CC(C)c1ccc2c(c1)CC[C@H]1[C@](C)(CNCCNN3CCCC3)CCC[C@]21C | Mycobacterium tuberculosis | culture |  |  |  |  | MIC |  | 50 µM
CNCC/C=C/c1cccnc1 | Mycobacterium tuberculosis | culture | H37Rv |  |  |  | MIC |  | >100 µg/mL
O=C(Nc1nnc(NCc2cccnc2)s1)c1c(Cl)cccc1Cl | Human cytomegalovirus | target |  |  | Polymerase |  | IC50 |  | <25 µM
Cc1cc(Cc2ccc(N)c(C)c2)ccc1N | Mycobacterium tuberculosis | culture | H37Rv |  |  |  | MIC |  | >100 µg/mL
O=C1c2cccc(NCCNCCO)c2C(=O)c2cccc(NCCNCCO)c21 | Mycobacterium tuberculosis | culture | H37Rv | BACTEC |  |  | MIC bound |  | >12.5 µg/mL
c1ccc(-c2nc[nH]c2-c2ccccc2)cc1 | Mycobacterium tuberculosis | culture | H37Rv |  |  |  | MIC |  | 50 µg/mL
CC(C)c1ccc2c(c1)CC[C@H]1[C@](C)(CNCCNCc3ccccc3F)CCC[C@]21C | Mycobacterium tuberculosis | culture |  |  |  |  | MIC |  | 12.5 µM
O=[N+]([O-])c1ccc(Cl)c(C2SCc3nc4ccccc4n32)c1 | Mycobacterium tuberculosis | culture | H37Rv | resazurin |  |  | inhibition | 6.25 µg/mL | 11%
C=CCNc1nc(NCC=C)nc(OCCCC)n1 | Mycobacterium tuberculosis | culture | H37Rv |  |  |  | MIC |  | >100 µg/mL
CC(=O)N[C@H]1[C@@H](O[C@@H]2O[C@H](C[C@@H](O)[C@H]3O[C@@H](n4ccc(=O)[nH]c4=O)[C@H](O)[C@@H]3O)[C@H](O)[C@H](O)[C@H]2NC(=O)/C=C/CC(C)C)O[C@H](CO)[C@@H](O)[C@@H]1O | Mycobacterium tuberculosis | culture | TAC-R |  |  |  | MIC |  | 0.4 µg/mL
Fc1ccc(N2CCN(c3cncc(-c4ccoc4)n3)CC2)cc1 | Cytomegalovirus | target |  |  | UL97 kinase |  | IC50 |  | <100 µM
Cl.O=C(O)CNCCN1CC(=O)N(Cc2ccccc2)C1=S | Mycobacterium tuberculosis | culture | H37Rv | BACTEC |  |  | MIC bound |  | >12.5 µg/mL
O=C(Nc1nnc(NCCCNC2CCCCC2)s1)c1ccc([N+](=O)[O-])o1 | Human cytomegalovirus | target |  |  | Polymerase |  | IC50 |  | <25 µM
CC(C)(CO)NCCNCCc1c[nH]c2ccccc12 | Mycobacterium tuberculosis | culture |  |  |  |  | MIC |  | 25 µM
COc1cc(C[C@H](C)[C@H](C)Cc2ccc(O)c(O)c2)ccc1O | Candida albicans | culture | ATCC 10231 | broth dilution |  |  | MIC80 |  | 62.5 µg/mL
CCCCCCCCP(=O)(O)OP(=O)(O)OC[C@H]1O[C@@H](n2ccc(N)nc2=O)[C@H](O)[C@@H]1O | Mycobacterium tuberculosis | culture | H37Rv | resazurin |  |  | MIC bound |  | >6.25 µg/mL
CC(=O)Nc1ccc(NS(C)(=O)=O)cc1 | Mycobacterium tuberculosis | culture | H37Rv |  |  |  | MIC |  | >100 µg/mL
Oc1ccc(-c2cncc(Nc3cccc(C(F)(F)F)c3)n2)cc1 | Cytomegalovirus | target |  |  | UL97 kinase |  | IC50 |  | <1 µM
Cc1ccc(Nc2cc(Oc3ccc(C)cc3)c3c4c(cc(=O)n3C)-c3ccccc3C(=O)c24)cc1 | Mycobacterium tuberculosis | culture | H37Rv |  |  |  | MIC |  | >100 µg/mL
CC(NCCNCCc1ccccc1)C12CC3CC(CC(C3)C1)C2 | Mycobacterium tuberculosis | culture |  |  |  |  | MIC |  | 50 µM
COc1ccc(/C=N/NC(=O)CC(=O)N/N=C/c2ccc(OC)cc2)cc1 | Mycobacterium tuberculosis | culture | H37Rv | BACTEC |  |  | MIC |  | ≥12.5 µg/mL
Cc1ccc(Nc2ccc(Nc3ccc(C)c(S(=O)(=O)[O-])c3)c3c2C(=O)c2c(O)ccc(O)c2C3=O)cc1S(=O)(=O)[O-].[Na+].[Na+] | Mycobacterium tuberculosis | culture | H37Rv |  |  |  | MIC |  | 25 µg/mL
O=C(/C=C/c1ccccc1)Nc1nnc(NCCc2cccs2)s1 | Human cytomegalovirus | target |  |  | Polymerase |  | IC50 |  | <25 µM
CC(=O)c1ccc(N2CCN(c3cncc(-c4csc5ccccc45)n3)CC2)cc1 | Cytomegalovirus | target |  |  | UL97 kinase |  | IC50 |  | <10 µM
O=C(Nc1ccccc1)c1cc(S(=O)(=O)N2CCNNC2=O)c(S)cc1Cl | Mycobacterium tuberculosis | culture | H37Rv | resazurin |  |  | MIC bound |  | >6.25 µg/mL
CC1(C)C2CC[C@@H](CNc3nnc(NC(=O)c4ccc([N+](=O)[O-])o4)s3)C1C2 | Human cytomegalovirus | target |  |  | Polymerase |  | IC50 |  | >25 µM
CCCCCCCC(=O)N1[C@H]2[C@@H]1CN1C3=C(C(=O)C(N)=C(C)C3=O)[C@@H](COC(N)=O)[C@@]21OC | Mycobacterium tuberculosis | culture | TAC-R |  |  |  | MIC |  | 0.4 µg/mL
CCCCC(CC)CN1CN(CC(CC)CCCC)CC(C)(NCCN[C@@H](COC)[C@@H](O)c2ccccc2)C1 | Mycobacterium tuberculosis | culture |  |  |  |  | MIC |  | 25 µM
CCC(C)(C)c1ccc(C(=O)N(Cc2ccccc2)c2ccccc2O)cc1Oc1ccccc1 | Mycobacterium tuberculosis | culture | H37Rv |  |  |  | MIC |  | >100 µg/mL
CCCCCCCCCCCNCCNCc1ccccc1Sc1ccccc1CO | Mycobacterium tuberculosis | culture |  |  |  |  | MIC |  | 25 µM
O=C(/C=C/c1ccccc1)Nc1nnc(NCc2cccnc2)s1 | Human cytomegalovirus | target |  |  | Polymerase |  | IC50 |  | >25 µM
ClC(=Nc1cccc(Cl)c1)C(Cl)=Nc1cccc(Cl)c1 | Mycobacterium tuberculosis | culture | H37Rv |  |  |  | MIC |  | >100 µg/mL
COc1ccc(/C(=N\NC(=O)C(=O)NN)C(c2ccc(OC)cc2)C2(O)C(=O)Nc3ccccc32)cc1 | Mycobacterium tuberculosis | culture | H37Rv | BACTEC |  |  | MIC bound |  | >12.5 µg/mL
O=C(Nc1ccccc1)C(C(=O)c1ccccc1)C(=O)c1ccccc1 | Mycobacterium tuberculosis | culture | H37Rv |  |  |  | MIC |  | >100 µg/mL
COC(=O)C1c2ccccc2CC(=O)N1NC(=O)c1ccccc1 | Mycobacterium tuberculosis | culture | H37Rv | BACTEC |  |  | MIC bound |  | >12.5 µg/mL
O=C(Nc1nnc(NCC(c2ccccc2)c2ccccc2)s1)c1c(Cl)cccc1Cl | Human cytomegalovirus | target |  |  | Polymerase |  | IC50 |  | <25 µM
CCCC(O)(C#CC(O)(CCC)CCC)CCC | Mycobacterium tuberculosis | culture | H37Rv |  |  |  | MIC |  | >100 µg/mL
Fc1ccc(N2CCCCC2)c(NC(=S)c2ccncc2)c1 |  | host protein |  | kinase activity | HIPK4 |  | inhibition | 10 µM | 35.1%
CC(NCCNC[C@@H]1CC[C@H]2C[C@@H]1C2(C)C)c1cccc2ccccc12 | Mycobacterium tuberculosis | culture |  |  |  |  | MIC |  | 50 µM
C=CCc1ccc(O)c(OC)c1 | Candida albicans | culture | 3043 | turbidity |  |  | MIC90 |  | 500 µg/mL
CO[C@@]12[C@H](COC(N)=O)C3=C(C(=O)C(C)=C(N)C3=O)N1C[C@H]1[C@@H]2N1C(=O)C1N2C(=O)[C@@H](NC(=O)Cc3ccccc3)[C@H]2SC1(C)C | Mycobacterium tuberculosis | culture | H37Rv |  |  | VERO | MIC |  | 0.2 µg/mL
COc1cccc(N2CCN(c3cncc(-c4cccc(C(C)=O)c4)n3)CC2)c1 | Cytomegalovirus | target |  |  | UL97 kinase |  | inhibition | 1 µM | <50%
CC(C)(C)OC(=O)C(C1NC2C(=O)OCC2(CO)S1)N1C(=O)c2ccccc2C1=O | Mycobacterium tuberculosis | culture | H37Rv | BACTEC |  |  | inhibition | 12.5 µg/mL | -6%
O=[N+]([O-])c1cccc(-c2ccncc2)c1 | Mycobacterium tuberculosis | culture | H37Rv |  |  |  | MIC |  | 50 µg/mL
Nc1ccc2nc3ccc(=O)cc-3n(-c3ccccc3)c2c1 | Mycobacterium tuberculosis | culture | H37Rv | BACTEC |  |  | inhibition | 12.5 µg/mL | 96%
O=C1c2cccc(NCCO)c2C(=O)c2cccc(NCCO)c21 | Mycobacterium tuberculosis | culture | H37Rv |  |  |  | MIC |  | >100 µg/mL
O=[N+]([O-])c1ccc(N=Nc2c(Cl)c(O)c3ccccc3c2O)nc1 | Mycobacterium tuberculosis | culture | RMP-R |  |  |  | MIC |  | 12.5 µg/mL
COc1ccc(-c2ccc3cccc(C)c3n2)cc1 | Mycobacterium tuberculosis | culture | H37Rv |  |  |  | MIC |  | >100 µg/mL
COc1ccc2[nH]c3c(C)c4ccncc4c(C)c3c2c1 | Mycobacterium tuberculosis | culture | H37Rv | BACTEC |  |  | MIC bound |  | ≤12.8 µg/mL
CC1=NN(c2nc3ccccc3s2)C(=O)C1 | Mycobacterium tuberculosis | culture | H37Rv |  |  |  | MIC |  | 50 µg/mL
COc1c(O)cc2oc3cc(O)c(CC=C(C)C)c(O)c3c(=O)c2c1CC=C(C)C | Mycobacterium tuberculosis | culture | H37Rv | BACTEC |  |  | MIC |  | 4 µg/mL
Cc1ccc(C(=O)Nc2nnc(NCCc3ccc(S(N)(=O)=O)cc3)s2)cc1 | Human cytomegalovirus | target |  |  | Polymerase |  | IC50 |  | >25 µM
COc1ccc(N2CCN(c3cncc(-c4cc5ccccc5s4)n3)CC2)cc1 | Cytomegalovirus | target |  |  | UL97 kinase |  | IC50 |  | <10 µM
CC1NOC(NS(=O)(=O)c2ccc(N=Nc3cc4ccccc4c(C(=O)O)c3O)cc2)C1C | Mycobacterium tuberculosis | culture | H37Rv | BACTEC |  |  | inhibition | 12.5 µg/mL | -7%
COc1cccc(-c2cncc(N3CCN(c4ccccc4OC)CC3)n2)c1 | Cytomegalovirus | target |  |  | UL97 kinase |  | inhibition | 1 µM | <50%
CCCCC(CC)CN1CN(CC(CC)CCCC)CC(C)(NCCNCc2ccccc2)C1 | Mycobacterium tuberculosis | culture |  |  |  |  | MIC |  | 25 µM
COC(=O)[C@H]1[C@H](O)[C@@H](C)[C@@H](O)[C@](C)(O)/C=C(\C)C2=C3C(=C(C)C(=O)c4c(O)c(c(C)c(OC(C)=O)c43)NC(=O)/C(C)=C/C=C\[C@@H](C)C(O)[C@@H](C)[C@H]1O)OCO2 | Mycobacterium tuberculosis | culture | PZA-R |  |  |  | MIC |  | 0.8 µg/mL
COc1cccc(-c2cncc(N3CCN(c4cccc(Cl)c4)CC3)n2)c1OC | Cytomegalovirus | target |  |  | UL97 kinase |  | IC50 |  | <100 µM
O=C(Nc1nnc(NCCC(c2ccccc2)c2ccccc2)s1)c1c(Cl)cccc1Cl | Human cytomegalovirus | target |  |  | Polymerase |  | IC50 |  | <25 µM
O=C(O)c1ccc(O)c(Br)c1 | Mycobacterium tuberculosis | culture | H37Rv |  |  |  | MIC |  | >100 µg/mL
COc1ccc(N2CCN(c3cncc(-c4cccc(C)c4C)n3)CC2)cc1OC | Cytomegalovirus | target |  |  | UL97 kinase |  | inhibition | 10 µM | >15%
Br.CCOc1cc(NCCCOc2ccccc2)c2ncccc2c1 | Mycobacterium tuberculosis | culture | H37Rv |  |  |  | MIC |  | >100 µg/mL
CCCCCCCC/C=C/CCCCCCCC(=O)Nc1nnc(NCCN(C)C)s1 | Human cytomegalovirus | target |  |  | Polymerase |  | IC50 |  | <25 µM
Cc1cc(C)c(-c2cc(O)c3ccccc3c2O)c(C)c1 | Mycobacterium tuberculosis | culture | H37Rv |  |  |  | MIC |  | 50 µg/mL
Cc1cc2c(cc1C)NC1=C(N2)OC(c2c3ccccc3cc3ccccc23)C1=O | Mycobacterium tuberculosis | culture | H37Rv | BACTEC |  |  | inhibition | 12.5 µg/mL | -18%
Fc1ccc(CNCCN(CCc2ccccc2)Cc2ccccc2)cc1 | Mycobacterium tuberculosis | culture |  |  |  |  | MIC |  | 50 µM
CC(C)CCCC(C)C1CCC2C3CC=C4CC(C(=O)O)CCC4(C)C3CCC12C | Mycobacterium tuberculosis | culture | H37Rv |  |  |  | MIC |  | 50 µg/mL

For reference, 8 entries again:

{"smiles": "COc1ccc(N2CCN(c3cncc(-c4cc5ccccc5s4)n3)CC2)cc1", "species": "Cytomegalovirus", "test": "target", "protein": "UL97 kinase", "endpoint": "IC50", "value": "<10 µM"}
{"smiles": "Fc1ccc(N2CCN(c3cncc(-c4ccoc4)n3)CC2)cc1", "species": "Cytomegalovirus", "test": "target", "protein": "UL97 kinase", "endpoint": "IC50", "value": "<100 µM"}
{"smiles": "Oc1ccc(-c2cncc(Nc3cccc(C(F)(F)F)c3)n2)cc1", "species": "Cytomegalovirus", "test": "target", "protein": "UL97 kinase", "endpoint": "IC50", "value": "<1 µM"}
{"smiles": "COc1cc(C[C@H](C)[C@H](C)Cc2ccc(O)c(O)c2)ccc1O", "species": "Candida albicans", "test": "culture", "strain or isolate": "ATCC 10231", "read by": "broth dilution", "endpoint": "MIC80", "value": "62.5 µg/mL"}
{"smiles": "CCCCCCCC/C=C/CCCCCCCC(=O)Nc1nnc(NCCN(C)C)s1", "species": "Human cytomegalovirus", "test": "target", "protein": "Polymerase", "endpoint": "IC50", "value": "<25 µM"}
{"smiles": "CCC(C)(C)c1ccc(C(=O)N(Cc2ccccc2)c2ccccc2O)cc1Oc1ccccc1", "species": "Mycobacterium tuberculosis", "test": "culture", "strain or isolate": "H37Rv", "endpoint": "MIC", "value": ">100 µg/mL"}
{"smiles": "CC(=O)c1ccc(N2CCN(c3cncc(-c4csc5ccccc45)n3)CC2)cc1", "species": "Cytomegalovirus", "test": "target", "protein": "UL97 kinase", "endpoint": "IC50", "value": "<10 µM"}
{"smiles": "CCCCC(CC)CN1CN(CC(CC)CCCC)CC(C)(NCCNCc2ccccc2)C1", "species": "Mycobacterium tuberculosis", "test": "culture", "endpoint": "MIC", "value": "25 µM"}